# HIV-1 NL4-3 point mutations in Gag: replication capacity

Data from the supplement of Al-Mawsawi et al. 2014, doi:10.1186/s12977-014-0124-6.

Protein: Gag of HIV-1 NL4-3, numbered from its first residue. Gag is numbered as the whole polyprotein.
Effects on overlapping genes or RNA elements are not listed.

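Seven fragments of pNL4-3 were mutated by error-prone PCR, and each virus pool was passaged in CEM T cells. The RC index is the frequency of a change after passage round 2 divided by its frequency in the plasmid library.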

Values are the RC index; higher means better tolerated. The authors read about 0.1 or less as lethal, 0.1-0.2 as attenuated and 0.2 or more as tolerated.
Substitutions are written as wild-type residue, site number, new residue.

* E230G (base A1478G, region CA) = 0.0408
* D183G (base A1337G, region CA) = 0.0512
* N325S (base A1763G, region CA) = 0.0595
* E106V (base A1106T, region MA) = 0.0458
* N153S (base A1247G, region CA) = 0.0401
* M171T (base T1301C, region CA) = 0.0368
* K95E (base A1072G, region MA) = 0.0632
* H219Y (base C1444T, region CA) = 0.0875
* L188I (base C1351A, region CA) = 0.0184
* R91K (base G1061A, region MA) = 0.492
* K202E (base A1393G, region CA) = 0.0357
* C57S (base T958A, region MA) = 0.0377
* I261V (base A1570G, region CA) = 0.0508
* I82L (base A1033T, region MA) = 0.0595
* M142K (base T1214A, region CA) = 0.0537
* R20Q (base G848A, region MA) = 0.0958
* K95R (base A1073G, region MA) = 0.160
* D329N (base G1774A, region CA) = 0.128
* V94E (base T1070A, region MA) = 0.0151
* Q311K (base C1720A, region CA) = 0.133
* P222L (base C1454T, region CA) = 0.0637
* V168A (base T1292C, region CA) = 0.115
* R214I (base G1430T, region CA) = 0.0990
* M142L (base A1213T, region CA) = 0.0407
* G248R (base G1531A, region CA) = 0.503
* E161G (base A1271G, region CA) = 0.0568
* L75H (base T1013A, region MA) = 0.0670
* N372S (base A1904G, region p2) = 0.0277
* Y296H (base T1675C, region CA) = 0.0943
* M198I (base G1383T, region CA) = 0.0945
* P149L (base C1235T, region CA) = 0.0749
* N189Y (base A1354T, region CA) = 0.0202
* G352R (base G1843A, region CA) = 0.198
* K18I (base A842T, region MA) = 0.0386
* S278C (base A1621T, region CA) = 0.0878
* G238R (base G1501A, region CA) = 0.142
* G233E (base G1487A, region CA) = 0.139
* N372T (base A1904C, region p2) = 0.0600
* G412D (base G2024A, region NC p7) = 0.291
* C57G (base T958G, region MA) = 0.0633
* A83T (base G1036A, region MA) = 0.135
* N382D (base A1933G, region NC p7) = 0.0244
* K32N (base A885C, region MA) = 0.0765
* E230D (base A1479T, region CA) = 0.0382
* K15I (base A833T, region MA) = 0.0318
* A196P (base G1375C, region CA) = 0.201
* M250I (base G1539A, region CA) = 0.329
* E52D (base G945C, region MA) = 0.0633
* I273V (base A1606G, region CA) = 0.0862
* V46A (base T926C, region MA) = 0.101
* Q246R (base A1526G, region CA) = 0.0695

3 of these entries, quoted again:

mutation,base,region,replication capacity index
K32N,A885C,MA,0.0765
K95E,A1072G,MA,0.0632
E106V,A1106T,MA,0.0458

The authors read an index above 1 as above wild type (1.9% of all changes in the genome).
Clones carried about five changes per kilobase, which can drag down the index of neutral changes.
Base changes are numbered along pNL4-3.